This data set has as its system HeLa cells. The data set can be described thus: Western blotting of T3SS translocated proteins from infected cells (digitonin lysis). It is filed as cell-based, human. To be noted: digitonin lysed HeLa cells, 1 h, MOI of 100, anti-Bid western blot. The text has this: Western blotting of T3SS translocated proteins from infected cells. HeLa cells in 6-well plates were infected at an MOI of 100 as described above. In case of coinfection with the TEV protease translocating Y. enterocolitica strain, the OD600 of the strains was set and the two bacterial suspensions were mixed in a tube at a ratio of 1:1 (if not otherwise indicated) before addition to the cells. At the end of the infection, the cells were washed twice with ice-cold PBS and collected by scraping in a small volume of ice-cold PBS. After centrifugation (16 000 rcf, 5 min, 4° C.) the pellet was dissolved in 0.002% digitonin supplemented with a protease inhibitor cocktail (Roche complete, Roche). The dissolved pellets were incubated for 5 minutes on ice and then centrifuged (16 000 rcf, 25 min, 4° C.). Supernatants were collected and analyzed for total protein content by […] (Pierce) before SDS PAGE and Western blotting using an anti-Myc (Santa Cruz, 9E11) or anti-Ink4C (Cell Signaling) antibody.

In the case of “YopE1-138-BID: YopE1-138 fusion to human BH3 interacting-domain death agonist (BID)”, the “translocated protein amount relative to endogenous Bid” value amounted to 2.5 fold.

Regarding “YopE1-138-tBID: YopE1-138 fusion to human truncated BID (tBID)”, the “translocated protein amount compared to endogenous Bid” value is “reached about endogenous Bid levels”.

(Values after patent publication US11702663B2, “Bacteria-based protein delivery” (Universitaet Basel, priority 2015, dated 2023).)
